Laboratory results from the supplement of paper PMC9931576.
Human monoclonal antibodies against the spike receptor-binding domain (heavy:light variable regions). IC50 against pseudoviruses bearing the spike of naturally observed variants; lower = stronger; >10 µg/ml means not reached at the top dose. No active / inactive call. The stated detection limit is 0.0005 µg/ml; values near or below 0.001 µg/ml lie at the floor of the assay.

B1: BD55-5792 (protein)
chain 1: QVQLVQSGAEVKKPGASVKVSCKASGYTFTDYYMHWVRQAPGQGLEWMGWINPNTGGTNYAQKFQGRVTMTRDTSISTAYMELSRLRSDDTALYYCARPAADFDWLRSGMDVWGQGTTVTVSS
chain 2: DIQMTQSPSSLSASVGDRVTITCRASQSIDNDLTWYQRKPGKAPKLLIFSASSLHSGVPSRFSGSGFGTDFTLTISGLQPEDFATYYCQQSNSSPLTFGQGTKLEIK
B2: BD55-5830 (protein)
chain 1: QVQLVQSGAEVKKPGASVKVSCKASGYTFTNYDINWVRQATGQGPEWMGWMNPDSGDTGYAHKFQGRVAMTRDTSINTAYMELSSLRSEDTAVYYCAITSSPGGFSVKSYYYYFVLDVWGQGTTVTVSS
chain 2: DIQMTQSPSSLSASVGDRVTITCRASQSISTYLNWYQQKPGKAPNLLIYSASSLQSGVPSRFSGSGSGTDFILTISSLQPEDFATYYCQQSYTTPPTFGQGTKVEIK
B3: BD55-5810 (protein)
chain 1: EVQLVESGGGLVQPGRSLRLSCKTSGFIVGDHCMSWVRQAPGKGLEWVGFMRSNTLGGTAEYAASVEGRFTVSRDDSKGIAYLQMNSLKTEDTAVYYCSRMGIMVSTYLGYYYAMDVWGQGTTVTVS
chain 2: DVQMTQSPSTLSASVGDRVTITCRANESVSNWLAWYQQKPGKAPKLLIYAASSLESGAPSRFSGTGSGTEFTLTINSLQADDFATYYCQQYNGFMYTFGQGTKLEIK
B4: BD55-5794 (protein)
chain 1: EVHLVESGGGLVQPGGSLRLSCAGSGFTFSSYWMSWVRQAPGKGLEWVANINQDGSEKNYVDSVKGRFTISRDNAKNSLSLQMNSLRAEDTAVYFCARSITLGGLIIIPPEYFDYWGQGTLVTVSS
chain 2: SYELTQPPSVSVSPGQTARITCSGDAFPNQYAHWYQQKPGQAPVVVIYKDSERSSGIPERFSGSSSGTTVTLTISGVQAEDEADYYCQSADSSGINYVFGAGTKVTVL
B5: BD55-1096 (protein)
chain 1: QVQLVESGGGVVRPGRSLRVSCAASGFSFSNYGMNWVRQAPGKGLEWVAMIWFDGSRKEYVDSVKGRFTISRDNPKNTLYLQMNSLRGDDTAVYYCAKSGRFYDSSGYEGLDALDLWGQGTMVTVSS
chain 2: IQLTQSPSSLSASVGDRVTITCRASQGIGRALAWYQQKPGKAPELLIYEASSLQTGVPSRFSGSGSGTDFTLSISSLQPEDFGTFFCQQFNYYPRTFGQGTKVEIK
B6: BD55-5832 (protein)
chain 1: EVQLVESGGGLVKPGESLRLSCAASASTFTSYYMNWVRQAPGKGLEWVSSISSTSSYIYYADSVKGRFTISRDNAKASVSLQMNRLRVDDTAMYYCAGDPGYDFSTGYYQAIDSWGQGTLVTVSS
chain 2: QPVLTQSSSASASLGSSVKLTCTLSSGHGNYILAWHQQQPGKAPRFLMKVEVSGNYFRGSGVPDRFSGSASGADRYLTISNLQSGDEATYYCDTWDSNTRLIGGGTKLTVL

These binders were tested against SARS-CoV-2 Omicron BA.1 spike pseudovirus (assay: pseudovirus neutralization IC50; higher = weaker neutralization).
Protocol: (§1)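 Single-round VSV luciferase pseudovirus mixed with antibody dilutions for 1 h and put on Huh-7 cells for about a day; IC50 from the dose curve.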
B1 was tested, and the “pseudovirus neutralization IC50” value was over 10 µg/mL. B2 was tested, and the “pseudovirus neutralization IC50” value was over 10 µg/mL. For B3, the “pseudovirus neutralization IC50” value was over 10 µg/mL. For B4, the “pseudovirus neutralization IC50” value was over 10 µg/mL. For B5, the “pseudovirus neutralization IC50” value was over 10 µg/mL. For B6, the “pseudovirus neutralization IC50” value was over 10 µg/mL.

These binders were tested against SARS-CoV-2 Omicron BA.2 spike pseudovirus in the same assay as above.
Protocol: as §1
B1 was tested, and the “pseudovirus neutralization IC50” value was over 10 µg/mL. For B2, the “pseudovirus neutralization IC50” value was over 10 µg/mL. B3 was tested, and the “pseudovirus neutralization IC50” value was over 10 µg/mL. In the case of B4, the “pseudovirus neutralization IC50” value is reported as over 10 µg/mL. B5 was tested, and the “pseudovirus neutralization IC50” value was over 10 µg/mL. B6 was tested, and the “pseudovirus neutralization IC50” value was over 10 µg/mL.

Each binder was assayed against SARS-CoV-2 Omicron BA.2.75 spike pseudovirus in the same assay as above.
Protocol: as §1
In the case of B1, the “pseudovirus neutralization IC50” value is reported as over 10 µg/mL. In the case of B2, the “pseudovirus neutralization IC50” value is reported as over 10 µg/mL. For B3, the “pseudovirus neutralization IC50” value was over 10 µg/mL. B4 was tested, and the “pseudovirus neutralization IC50” value was over 10 µg/mL. B5 was tested, and the “pseudovirus neutralization IC50” value was over 10 µg/mL. B6 was tested, and the “pseudovirus neutralization IC50” value was over 10 µg/mL.

The binders below were run against SARS-CoV-2 Omicron BA.5 spike pseudovirus in the same assay as above.
Protocol: as §1
In the case of B1, the “pseudovirus neutralization IC50” value is reported as over 10 µg/mL. For B2, the “pseudovirus neutralization IC50” value was over 10 µg/mL. For B3, the “pseudovirus neutralization IC50” value was over 10 µg/mL. B4 was tested, and the “pseudovirus neutralization IC50” value was over 10 µg/mL. With B5 the “pseudovirus neutralization IC50” value was over 10 µg/mL. For B6, the “pseudovirus neutralization IC50” value was over 10 µg/mL.

Each binder was assayed against SARS-CoV-2 Omicron BQ.1.1 spike pseudovirus in the same assay as above.
Protocol: as §1
For B1, the “pseudovirus neutralization IC50” value was over 10 µg/mL. B2 was tested, and the “pseudovirus neutralization IC50” value was over 10 µg/mL. For B3, the “pseudovirus neutralization IC50” value was over 10 µg/mL. B4 was tested, and the “pseudovirus neutralization IC50” value was over 10 µg/mL. B5 was tested, and the “pseudovirus neutralization IC50” value was over 10 µg/mL. For B6, the “pseudovirus neutralization IC50” value was over 10 µg/mL.

These binders were tested against SARS-CoV-2 Omicron XBB spike pseudovirus in the same assay as above.
Protocol: as §1
For B1, the “pseudovirus neutralization IC50” value was over 10 µg/mL. B2 was tested, and the “pseudovirus neutralization IC50” value was over 10 µg/mL. For B3, the “pseudovirus neutralization IC50” value was over 10 µg/mL. In the case of B4, the “pseudovirus neutralization IC50” value is reported as over 10 µg/mL. With B5 the “pseudovirus neutralization IC50” value was over 10 µg/mL. With B6 the “pseudovirus neutralization IC50” value was over 10 µg/mL.

The binders below were run against SARS-CoV-2 early D614G spike pseudovirus in the same assay as above.
Protocol: as §1
B1 was tested, and the “pseudovirus neutralization IC50” value was 0.364 µg/mL. For B2, the “pseudovirus neutralization IC50” value was 1.27 µg/mL. In the case of B3, the “pseudovirus neutralization IC50” value is reported as 0.174 µg/mL. With B4 the “pseudovirus neutralization IC50” value was 0.921 µg/mL. With B5 the “pseudovirus neutralization IC50” value was 0.037 µg/mL. In the case of B6, the “pseudovirus neutralization IC50” value is reported as 0.0117 µg/mL.
